Results of unrelated studies side by side (data: NIAID ChemDB).

Common to all: target-level tests

Conditions beyond the fields shown may differ between rows. ICn is the concentration giving n% inhibition. Inhibition is in % at the dose shown (toxicity tests: loss of growth or viability).

{"compound": "CCCCCCOC1C=C(C(=O)O)C[C@H](N)[C@H]1NC(C)=O", "target": "Neuraminidase", "endpoint": "IC50", "organism": "Influenza A virus", "result": "0.29 µM"}
{"compound": "CCCC(C(=O)O)P(=O)(O)O", "target": "RNA-dependent RNA polymerase", "endpoint": "IC50", "organism": "Influenza virus", "result": ">500 µM"}
{"compound": "CC(=O)N[C@H]1[C@H]([C@H](O)[C@H](O)CO)OC(C(=O)O)=C[C@@H]1N", "strain or isolate": "A/Brazil/11/78 (H1N1)", "target": "Sialidase", "endpoint": "IC50", "organism": "Influenza A virus", "result": "0.13 µM"}
{"compound": "CCCCCCCCCC(C(=O)O)P(=O)(O)O", "target": "RNA-dependent RNA polymerase", "endpoint": "IC50", "organism": "Influenza virus", "result": ">500 µM"}
{"compound": "CCC(CC)[C@H](NC(C)=O)[C@@H]1[C@H](O)[C@@H](C(=O)O)C[C@H]1N=C(N)N", "strain or isolate": "WILD TYPE (292)", "target": "Influenza virus neuraminidase", "endpoint": "IC50", "organism": "Influenza A virus", "result": "0.0011 µM"}
{"compound": "CC(=O)Nc1c(N=C(N)N)cc(C(=O)O)cc1[C@H](O)[C@H](O)CO", "strain or isolate": "Influenza A/Shandong/09/93 (H3N2)", "target": "Neuraminidase", "endpoint": "IC50", "organism": "Influenza A virus", "result": "20 µM"}
{"compound": "O=C(O)CCP(=O)(O)O", "target": "RNA-dependent RNA polymerase", "endpoint": "IC50", "organism": "Influenza virus", "result": ">500 µM"}
{"compound": "CC(C)(C)NC(=O)NC(=S)NC(=O)c1ccccc1", "strain or isolate": "H1N1", "target": "Neuraminidase", "endpoint": "IC50", "organism": "Influenza A virus", "result": "1.1 µM"}
{"compound": "CCCCCCCCCCCCCCCC(=O)N[C@@H]([C@@H]1OC(C(=O)O)=C[C@H](N=C(N)N)[C@H]1NC(C)=O)[C@H](O)CO", "strain or isolate": "A/PR/8/34", "target": "Sialidase", "endpoint": "IC50", "organism": "Influenza A virus", "result": "0.479 µg/mL"}
{"compound": "O=C(O)C(=O)O", "target": "RNA-dependent RNA polymerase", "endpoint": "IC50", "organism": "Influenza virus", "result": ">500 µM"}
{"compound": "N[C@H]1C=C(C(=O)O)O[C@@H]([C@H](O)[C@H](O)CO)C1", "strain or isolate": "AICHI", "target": "Influenza A sialidase", "endpoint": "IC50", "organism": "Influenza A virus", "result": ">500 µM"}
{"compound": "COCON1C(=O)[C@H]([C@H](O)c2cccc(F)c2)N(Cc2ccc(OC)cc2)[C@@H](CC(C)C)C1=O", "target": "Transcriptase", "endpoint": "IC50", "organism": "Influenza A virus", "result": ">200 µM"}
{"compound": "CC(=O)N[C@H]1[C@H]([C@H](O)[C@H](O)CO)OC(C(=O)O)=C[C@@H]1N", "target": "Neuraminidase", "endpoint": "Ki", "organism": "Influenza A virus", "result": "0.05 µM"}
{"compound": "COCON1C(=O)[C@H]([C@H](OS(C)(=O)=O)c2ccccc2F)N(Cc2ccc(OC)cc2)[C@@H](CC(C)C)C1=O", "target": "Transcriptase", "endpoint": "IC50", "organism": "Influenza A virus", "result": ">200 µM"}
{"compound": "CC(=O)Nc1ccc(C(=O)O)cc1N", "strain or isolate": "B/LEE/40", "target": "Neuraminidase", "endpoint": "IC50", "organism": "Influenza B virus", "result": ">20000 µM"}
{"compound": "CC(=O)N[C@@H]([C@@H]1OC(C(=O)O)=C[C@H](N=C(N)N)[C@H]1NC(C)=O)[C@H](O)CO", "strain or isolate": "A/PR/8/34", "target": "Sialidase", "endpoint": "IC50", "organism": "Influenza A virus", "result": "0.0181 µg/mL"}
{"compound": "COCON1C(=O)[C@H]([C@H](O)c2ccc(F)cc2)N(Cc2ccc(OC)cc2)[C@@H](Cc2ccccc2)C1=O", "target": "Transcriptase", "endpoint": "IC50", "organism": "Influenza A virus", "result": ">200 µM"}
{"compound": "CCC(CC)Nc1cc(C(=O)O)ccc1N1C(=O)CCC1(CO)CO", "strain or isolate": "Subtype N2", "target": "Neuraminidase", "endpoint": "IC50", "organism": "Influenza A virus", "result": "0.49 µM"}
{"compound": "CC(=O)Nc1ccc(C(=O)O)cc1N", "strain or isolate": "Memphis/3/89", "target": "Neuraminidase", "endpoint": "IC50", "organism": "Influenza B virus", "result": ">20000 µM"}
{"compound": "CC(=O)N[C@H]1[C@H]([C@H](F)[C@H](O)CO)OC(C(=O)O)=C[C@@H]1N=C(N)N", "strain or isolate": "A/PR/8/34", "target": "Sialidase", "endpoint": "IC50", "organism": "Influenza A virus", "result": "0.0008 µg/mL"}
{"compound": "CC(C(=O)O)P(=O)(O)O", "target": "RNA-dependent RNA polymerase", "endpoint": "IC50", "organism": "Influenza virus", "result": ">500 µM"}
{"compound": "CC(N)C12CC3CC(CC(C3)C1)C2", "method": "nucleotide incorporation", "strain or isolate": "A/PR/1/74 RNP", "target": "Virion transcriptase", "endpoint": "inhibition", "organism": "Influenza A virus", "dose": "200 µg/mL", "result": "10%"}
{"compound": "CCC(CC)Nc1cc(C(=O)O)ccc1N1C(=O)CCC1(CO)CCO", "strain or isolate": "B/LEE", "target": "Neuraminidase", "endpoint": "IC50", "organism": "Influenza B virus", "result": ">1000 µM"}
{"compound": "Cc1cc(=O)[nH]c(NC(=S)NC(=O)c2ccc(-c3ccc([N+](=O)[O-])cc3)o2)n1", "strain or isolate": "H1N1", "target": "Neuraminidase", "endpoint": "IC50", "organism": "Influenza A virus", "result": "0.85 µM"}
{"compound": "CC(O)(P(=O)(O)O)P(=O)(O)O", "target": "RNA-dependent RNA polymerase", "endpoint": "IC50", "organism": "Influenza virus", "result": ">500 µM"}
{"compound": "COCON1C(=O)[C@H]([C@H](OS(C)(=O)=O)C(C)C)N(Cc2ccc(OC)cc2)[C@@H](Cc2ccccc2)C1=O", "target": "Transcriptase", "endpoint": "IC50", "organism": "Influenza A virus", "result": ">200 µM"}
{"compound": "O=C(O)CP(=O)(O)O", "target": "RNA-dependent RNA polymerase", "endpoint": "IC50", "organism": "Influenza virus", "result": "300 µM"}
{"compound": "Cc1cc(=O)[nH]c(NC(=S)NC(=O)c2ccc(-c3ccccc3Cl)o2)n1", "strain or isolate": "H1N1", "target": "Neuraminidase", "endpoint": "IC50", "organism": "Influenza A virus", "result": "2.8 µM"}
{"compound": "O=P(O)(O)CP(=O)(O)O", "target": "RNA-dependent RNA polymerase", "endpoint": "IC50", "organism": "Influenza virus", "result": ">500 µM"}
{"compound": "CCC(CC)O[C@@H]1C(Cl)=C(C(=O)O)C[C@H](N)[C@H]1NC(C)=O", "strain or isolate": "A/PR/8/34", "target": "Influenza virus neuraminidase", "endpoint": "IC50", "organism": "Influenza A virus", "result": "3.4 µM"}
{"compound": "CC(C)(C)NC(=O)NC(=S)NC(=O)c1c(F)cccc1F", "strain or isolate": "H1N1", "target": "Neuraminidase", "endpoint": "IC50", "organism": "Influenza A virus", "result": "4.2 µM"}
{"compound": "CC(=O)N[C@H]1C(OC2CCCCC2)C=C(C(=O)O)C[C@@H]1N", "target": "Neuraminidase", "endpoint": "IC50", "organism": "Influenza A virus", "result": "0.21 µM"}
{"compound": "CC(=O)N[C@H]1[C@H]([C@H](N)[C@H](O)CO)OC(C(=O)O)=C[C@@H]1N=C(N)N", "strain or isolate": "A/PR/8/34", "target": "Sialidase", "endpoint": "IC50", "organism": "Influenza A virus", "result": "0.0374 µg/mL"}
{"compound": "CCOc1cc(C)nc(NC(=S)NC(=O)c2ccc(-c3ccccc3Cl)o2)n1", "strain or isolate": "H1N1", "target": "Neuraminidase", "endpoint": "IC50", "organism": "Influenza A virus", "result": "11 µM"}
{"compound": "CCCOC1C=C(C(=O)O)C[C@H](N)[C@H]1NC(C)=O", "target": "Neuraminidase", "endpoint": "IC50", "organism": "Influenza A virus", "result": "0.06 µM"}
{"compound": "CCOc1cc(OCC)nc(NC(=S)NC(=O)c2ccc(-c3ccccc3Cl)o2)n1", "strain or isolate": "H1N1", "target": "Neuraminidase", "endpoint": "IC50", "organism": "Influenza A virus", "result": "9.5 µM"}
{"compound": "CC[C@H](CCc1ccccc1)OC1C=C(C(=O)O)C[C@H](N)[C@H]1NC(C)=O", "target": "Neuraminidase", "endpoint": "IC50", "organism": "Influenza A virus", "result": "0.00009 µM"}

The first 5 rows once more:

{"compound": "CCCCCCOC1C=C(C(=O)O)C[C@H](N)[C@H]1NC(C)=O", "target": "Neuraminidase", "endpoint": "IC50", "organism": "Influenza A virus", "result": "0.29 µM"}
{"compound": "CCCC(C(=O)O)P(=O)(O)O", "target": "RNA-dependent RNA polymerase", "endpoint": "IC50", "organism": "Influenza virus", "result": ">500 µM"}
{"compound": "CC(=O)N[C@H]1[C@H]([C@H](O)[C@H](O)CO)OC(C(=O)O)=C[C@@H]1N", "strain or isolate": "A/Brazil/11/78 (H1N1)", "target": "Sialidase", "endpoint": "IC50", "organism": "Influenza A virus", "result": "0.13 µM"}
{"compound": "CCCCCCCCCC(C(=O)O)P(=O)(O)O", "target": "RNA-dependent RNA polymerase", "endpoint": "IC50", "organism": "Influenza virus", "result": ">500 µM"}
{"compound": "CCC(CC)[C@H](NC(C)=O)[C@@H]1[C@H](O)[C@@H](C(=O)O)C[C@H]1N=C(N)N", "strain or isolate": "WILD TYPE (292)", "target": "Influenza virus neuraminidase", "endpoint": "IC50", "organism": "Influenza A virus", "result": "0.0011 µM"}